Assay results taken from PubChem BioAssay AID720596 (The Scripps Research Institute Molecular Screening Center, 2013).
This is a selection; strong and weak results do not stand in their true shares. Some salts and complexes are drawn in separate pieces, as the source files them; their charges need not balance. Active and inactive are the calls of the source. Cut-off read from the data, not from the text of the source: active = inhibition above about 24%; inactive = the rest.

Each molecule was assayed against Major prion protein (Homo sapiens) (UniProt P04156) (assay: inhibitors of human cell surface prion protein PrPC, primary screen, cell-based, TR-FRET (AID 720596; note: 0% = median of the test wells and 100% = reference compound wells)). Settings: TR-FRET read-out, at 13.8 µM, active compounds read high.

Row | Compound | inhibition
1 | COc1ccc(OP(C)(=O)Nc2ccccn2)cc1 (stereo unspecified) | inactive: 1.14%
2 | CN(C)CCOC(=O)C(O)(c1ccccc1)C1CCCC1 (stereo unspecified) | inactive: 4.09%
3 | Cc1c(NP(C)(=O)Oc2ccc(C(C)C)cc2)c(=O)n(-c2ccccc2)n1C (stereo unspecified) | inactive: -2.42%
4 | O=[N+]([O-])c1cc([N+](=O)[O-])c(Nc2ccccn2)c([N+](=O)[O-])c1 | inactive: -29.9%
5 | CP(=O)(Nc1ccccn1)Oc1ccccc1 (stereo unspecified) | inactive: -2.47%
6 | COc1ccccc1OP(C)(=O)Nc1ccc(C)cc1C (stereo unspecified) | inactive: -1.42%
7 | CCc1ccc(OP(C)(=O)O)cc1 | inactive: -0.23%
8 | O=C1C(O)=C([N+](=O)[O-])C(=O)C(O)=C1[N+](=O)[O-] | inactive: -9.43%
9 | Cc1cc(C)cc(OP(C)(=O)Nc2cccc(C(F)(F)F)c2)c1 (stereo unspecified) | inactive: 0.67%
10 | COc1ccccc1OP(C)(=O)Nc1ccc(C)c(C)c1 (stereo unspecified) | inactive: -4.96%
11 | COc1ccc(OP(C)(=O)Nc2ccccc2Br)cc1 (stereo unspecified) | inactive: -1.13%
12 | CCCCCCCCCCCCCCCC1C[N+](C)(C)CCOP(C)(=O)O1 (stereo unspecified) | inactive: 11.8%
13 | CP(=O)(Nc1ccc(Cl)cc1Cl)Oc1ccccc1 (stereo unspecified) | inactive: -0.03%
14 | CP(=O)(OCCOc1ccccc1)OCCOc1ccccc1 | inactive: 3.16%
15 | CCN(CC)CCCNc1ccccc1[N+](=O)[O-].O=[N+]([O-])c1cc([N+](=O)[O-])c(O)c([N+](=O)[O-])c1 | inactive: -23.1%
16 | CCOC(=O)c1ccc(NP(C)(=O)Oc2ccc(F)cc2)cc1 (stereo unspecified) | inactive: -2.17%
17 | COc1ccc(OP(C)(=O)Nc2ccc(SC(F)(F)F)cc2)cc1 (stereo unspecified) | inactive: -2.84%
18 | Cc1c([N+](=O)[O-])cc([N+](=O)[O-])c(Br)c1[N+](=O)[O-] | inactive: 4.54%
19 | CCN(CC)CCCOC(=O)C(O)(c1ccccc1)C1CCCCC1 (stereo unspecified) | inactive: 4.26%
20 | CP(=O)(Nc1ccccc1)Oc1ccc(F)cc1 (stereo unspecified) | inactive: -1.13%
21 | CCCCCOc1ccc(NP(C)(=O)Oc2ccc(Cl)cc2Cl)cc1 (stereo unspecified) | inactive: -0.44%

Row | Compound | inhibition
22 | O=[N+]([O-])c1cc([N+](=O)[O-])c(OC2CCCCC2O)c([N+](=O)[O-])c1 (stereo unspecified) | inactive: -18.2%
23 | O=[N+]([O-])c1cc([N+](=O)[O-])c(Nc2ccc(Cl)cc2)c([N+](=O)[O-])c1 | inactive: -6.89%
24 | CP(=O)(Nc1ccccc1F)Oc1ccccc1 (stereo unspecified) | inactive: -0.69%
25 | CC(C)c1ccc(OP(C)(=O)Nc2ccc(SC(F)(F)F)cc2)cc1 (stereo unspecified) | inactive: -2.33%
26 | O=C(OC1CN2CCC1CC2)c1ccc([N+](=O)[O-])cc1 (stereo unspecified) | inactive: -19%
27 | O=C(OCCN1CCN(CCOCc2ccccc2)CC1)C(O)(c1ccccc1)c1ccccc1 | inactive: 7.18%
28 | COc1ccc2c(c1O)-c1c(O)c(OC)cc3c1[C@H](C2)[N+](C)(C)CC3.O=[N+]([O-])c1cc([N+](=O)[O-])c([O-])c([N+](=O)[O-])c1[O-] | inactive: 5%
29 | CP(=O)(Nc1ccc(SC(F)(F)F)cc1)Oc1ccc(F)cc1 (stereo unspecified) | inactive: 9.7%
30 | CCOP(C)(=S)SCC(=O)NC(C)(CC)C(=O)O (stereo unspecified) | inactive: -4.86%
31 | CCOP(=O)(CC)OCC | inactive: -6.84%
32 | CP(=O)(Nc1ccc2c(c1)OCCO2)Oc1ccccc1 (stereo unspecified) | inactive: -2.72%
33 | Cc1ccccc1NP(C)(=O)Nc1ccccc1C | inactive: -5.5%
34 | O=[N+]([O-])c1cc([N+](=O)[O-])c(C(F)(F)F)c([N+](=O)[O-])c1O | inactive: -13.2%
35 | COc1ccc(OP(C)(=O)Nc2cccc(Br)c2)cc1 (stereo unspecified) | inactive: 5.21%
36 | CN(C)CCOC(=O)C(O)(c1ccccc1)C1CCCCC1 (stereo unspecified) | inactive: -2.68%
37 | COc1ccc(NP(C)(=O)Oc2ccccc2OC)cc1 (stereo unspecified) | inactive: 5.89%
38 | O=[N+]([O-])c1ccc(OP2(=O)COCCO2)cc1 (stereo unspecified) | inactive: -5.01%
39 | O=[N+]([O-])c1cc([N+](=O)[O-])c(NCC2CCS(=O)(=O)C2)c([N+](=O)[O-])c1 (stereo unspecified) | inactive: -37.4%
40 | Cc1cc(-c2cccc3ccccc23)c(C)cn1.O=[N+]([O-])c1cc([N+](=O)[O-])c(O)c([N+](=O)[O-])c1 | inactive: -8%
41 | Cc1c(C(c2ccc3c(c2)OCO3)c2c(C)n(C)n(-c3ccccc3)c2=O)c(=O)n(-c2ccccc2)n1C.O=[N+]([O-])c1cc([N+](=O)[O-])c(O)c([N+](=O)[O-])c1 | inactive: 4.26%
